Results of unrelated studies side by side (data: NIAID ChemDB).

Common to all: tests in culture; species: Aspergillus niger; measure: zone

Blank or dashed fields: not listed here. Neighbouring rows are from separate reports. Zone: diameter of growth inhibition.

smiles	tested at	read by	strain or isolate	value
OC(Cn1cncn1)(Cn1cncn1)c1ccc(F)cc1F	50 µg/mL	-	-	99 mm
CS(=O)(=O)c1nc(N)c(C#N)c(/C=C\c2ccccc2)n1	100 µg/mL	agar diffusion	MTCC 282	20 mm
O=C1CC(c2ccccc2)CC2=C1C(c1cccc(C3C4=C(CC(c5ccccc5)CC4=O)OC4=C3C(=O)CC(c3ccccc3)C4)c1)C1=C(CC(c3ccccc3)CC1=O)O2	20 µg/mL	agar diffusion	ATCC 10949	0 mm
Cc1cc(=O)oc2c(C=Nc3cccc4cccc(N=Cc5c(O)ccc6c(C)cc(=O)oc56)c34)c(O)ccc12	200 µg/mL	-	MTCC 1881	11 mm
CS(=O)(=O)c1nc(N)c(C#N)c(-c2cccc([N+](=O)[O-])c2)n1	50 µg/mL	agar diffusion	MTCC 282	18 mm
O=C(NN=Cc1ccc([N+](=O)[O-])cc1)c1snnc1C(F)(F)F	100 µg/mL	agar diffusion / agar	MTCC 1344	0 mm
CS(=O)(=O)C1=NC(c2cccc3cc4ccccc4cc23)C(C#N)=C(N)N1	25 µg/mL	agar diffusion	MTCC 282	18 mm
CC1(C)CC(=O)C2=C(C1)OC1=C(C(=O)CC(C)(C)C1)C2c1cccc(C2C3=C(CC(C)(C)CC3=O)OC3=C2C(=O)CC(C)(C)C3)c1	140 µg/disc	agar diffusion	ATCC 10949	0 mm
CS(=O)(=O)c1nc(N)c(C#N)c(-c2ccc(Cl)cc2)n1	100 µg/mL	agar diffusion	MTCC 282	20 mm
CC1(C)CC(=O)C2=C(C1)OC1=C(C(=O)CC(C)(C)C1)C2c1ccc(C2C3=C(CC(C)(C)CC3=O)OC3=C2C(=O)CC(C)(C)C3)cc1	20 µg/mL	agar diffusion	ATCC 10949	0 mm
O=C(NN=C1CCCCC1)c1snnc1C(F)(F)F	100 µg/mL	agar diffusion / agar	MTCC 1344	0 mm
CSC1=NC(c2cccc3cc4ccccc4cc23)C(C#N)=C(N)N1	100 µg/mL	agar diffusion	MTCC 282	16 mm
O=C(NN=C1CCCCCC1)c1snnc1C(F)(F)F	100 µg/mL	agar diffusion / agar	MTCC 1344	0 mm
CC1(C)CCC2=C(C1=O)C(c1cccc(C3C4=C(CCC(C)(C)C4=O)OC4=C3C(=O)C(C)(C)CC4)c1)C1=C(CCC(C)(C)C1=O)O2	40 µg/disc	agar diffusion	ATCC 10949	0 mm
O=C(NN=Cc1cccs1)c1snnc1C(F)(F)F	100 µg/mL	agar diffusion / agar	MTCC 1344	0 mm
O=C1CCCC2=C1C(c1ccc(C3C4=C(CCCC4=O)OC4=C3C(=O)CCC4)cc1)C1=C(CCCC1=O)O2	20 µg/mL	agar diffusion	ATCC 10949	0 mm

The last 2 rows once more:

smiles,tested at,read by,strain or isolate,value
O=C(NN=Cc1cccs1)c1snnc1C(F)(F)F,100 µg/mL,agar diffusion / agar,MTCC 1344,0 mm
O=C1CCCC2=C1C(c1ccc(C3C4=C(CCCC4=O)OC4=C3C(=O)CCC4)cc1)C1=C(CCCC1=O)O2,20 µg/mL,agar diffusion,ATCC 10949,0 mm